Compound potency records, mixed from different reports. Data source: NIAID ChemDB in PubChem.

Shared fields: whole-cell or culture tests; agent: Candida krusei; measure: MIC

An empty or dashed field is not shown. Lines come from different laboratories, so protocols vary. a–b is a range or a potency band.

SMILES	strain	read by	setting	result
CCC[CH2][Sn+3].Fc1ccccc1N=C([S-])N/N=C(\c1ccccc1)c1ccccn1	ATCC 200298	broth dilution	-	53.68 µM
NC(Cc1ccccc1)C(=O)NC(CC1C=Cc2ccccc21)C(=O)NC(CS)C(=O)O	ATCC 6258	broth dilution	-	370 µg/mL
CCOC(=O)C1C(=O)C=C(c2ccccc2)CC1c1ccc(C2CC(c3ccccc3)=CC(=O)C2C(=O)OCC)cc1	Clinical isolate	-	-	50 µg/mL
CC(C)(O)c1cn(-c2ccc(Cl)cc2)nn1	URM 4263	broth dilution	-	256 µg/mL
Cc1nc2c(s1)C(=O)C(Nc1ccc(C#N)cc1)=C(Cl)C2=O	KCCM 11655	broth dilution	-	12.5 µg/mL
Nc1[nH]c(=O)ncc1F	KCCM 11655	broth dilution	-	3.2 µg/mL
CCOC(=O)c1c(N)oc2c1cc(O)c1sc(C)nc12	KCCM 11655	broth dilution	-	25 µg/mL
CC1C(=O)N(Cc2ccccc2)C(=O)C1C	CCC 117-2000	broth dilution / turbidity	-	125 µg/mL
Ic1ccc(-c2csc(N/N=C\c3cccc4ccccc34)n2)cc1	Clinical isolates	-	48 h	2 µg/mL
C[C@@H]1CC(=O)N(c2ccccc2)C1=O	CCC 117-2000	broth dilution / turbidity	-	62.5 µg/mL
CCCCCCCCCCCCCCCC(=O)NC(CCCCN)C(=O)NC(CCCCN)C(N)=O	4153	broth dilution	-	1 µg/mL
OC(Cn1cncn1)(Cn1cncn1)c1ccc(F)cc1F	-	agar	-	25–100 µg/mL
C/C(=N\NC([S-])=Nc1ccccc1Cl)c1ccccn1.CCC[CH2][Sn+3]	ATCC 200298	broth dilution	-	29.06 µM
CCCCCCCC/C=C\CCCCCCCC(=O)N[C@H](C(=O)N1C[C@H](C)C[C@H]1C(=O)N[C@H](C(=O)N[C@@H](CCO)C(=O)N[C@@H](C)C=O)C(C)C)[C@@H](C)O	ATCC 6258	broth dilution / visual reading	-	2 µg/mL
C[C@H]1[C@H](O)[C@@H](C)/C=C/C=C/C=C/C=C/C=C/C=C/C=C/[C@H](O[C@@H]2O[C@H](C)[C@@H](O)[C@H](N)[C@@H]2O)C[C@@H]2O[C@](O)(C[C@@H](O)C[C@@H](O)CC[C@H](O)[C@@H](O)C[C@@H](O)CC(=O)O[C@H]1C)C[C@H](O)[C@H]2C(=O)O	ATCC 6258	broth dilution	-	0.25 µg/mL
C[C@H]1[C@H](O)[C@@H](C)/C=C/C=C/C=C/C=C/C=C/C=C/C=C/[C@H](O[C@@H]2O[C@H](C)[C@@H](O)[C@H](N)[C@@H]2O)C[C@@H]2O[C@](O)(C[C@@H](O)C[C@@H](O)CC[C@H](O)[C@@H](O)C[C@@H](O)CC(=O)O[C@H]1C)C[C@H](O)[C@H]2C(=O)O	14243	broth dilution	-	0.125 µg/mL
COc1cc(NC(C)CCCNC(=O)CCC(NC(=O)[C@H](N)CCCCN)C(=O)O)c2nc(C(C)(C)C)ccc2c1	-	broth dilution	-	>20 µg/mL
O=C(O[C@@H]1COC(=O)c2cc(O)c(O)c(O)c2-c2c(cc(O)c(O)c2O)C(=O)OC1C1OC(=O)c2cc(O)c(O)c(O)c2-c2c(O)c(O)c(O)c3c2C(=O)OC1[C@H]3O)c1cc(O)c(O)c(O)c1	ATCC 6258	broth dilution	-	26 µg/mL
COC(=O)c1ccc(C[C@H](C(=O)OC)[C@@H](O)C(=O)OC)cc1	DSM 6128	-	-	2 µg/mL
COC(=O)c1c(N)oc2cc(Cl)c(O)cc12	KCCM 11655	broth dilution	-	3.2 µg/mL
CCCCCCCCCCCCCCCCCCC1=NCCCC1	ATCC 6258	-	-	20 µg/mL
Cc1nc2c(s1)C(=O)C(Nc1ccc(I)cc1)=C(Cl)C2=O	KCCM 11655	broth dilution	-	12.5 µg/mL
C[C@@H]1CC(=O)N(c2ccc(F)cc2)C1=O	CCC 117-2000	broth dilution / turbidity	-	31.3 µg/mL
Cc1ccc(NC2=C(Cl)C(=O)c3nc(C)sc3C2=O)cc1	KCCM 11655	broth dilution	-	6.3 µg/mL
COC(=O)c1c(N)oc2c(C)c(C)c(O)c(Sc3cccc(C)c3)c12	KCCM 11655	broth dilution	-	3.2 µg/mL
CCCC[C@@H](C)/C=C(C)/C=C(\C)C(=O)N/C(=C/[C@@](C)(O)/C=C/C=C/C=C/C(=O)NC1=C(O)CCC1=O)C(=O)[C@@H]1CO1	1	broth dilution	-	25 µM
COc1ccc(NC2=C(Cl)C(=O)c3nc(C)sc3C2=O)cc1	KCCM 11655	broth dilution	-	6.3 µg/mL
COC(=O)c1c(N)oc2c(C)c(C)c(O)c(Sc3ccccc3)c12	KCCM 11655	broth dilution	-	3.2 µg/mL
C[C@@H]1CC(=O)N(CCCc2ccccc2)C1=O	CCC 117-2000	broth dilution / turbidity	-	125 µg/mL
CCCCCCCCCCCC[n+]1cccc2ccccc21	E28	broth dilution	24 h	0.01562 µg/mL
CO/N=C/C(C)(C)C(O)(Cn1cncn1)c1ccc(Cl)cc1	-	visual reading	-	4 µg/mL
CCC(C)CC(C)CCCCCCCCC(=O)N[C@H]1C[C@@H](O)[C@H](NCCN)NC(=O)[C@@H]2[C@@H](O)CCN2C(=O)[C@H]([C@H](O)CCN)NC(=O)[C@H]([C@H](O)[C@@H](O)c2ccc(O)cc2)NC(=O)[C@@H]2C[C@@H](O)CN2C(=O)[C@H]([C@@H](C)O)NC1=O	C245	broth dilution	-	0.125 µg/mL
NC(Cc1ccccc1)C(=O)CC(CC1C=Nc2ccccc21)C(=O)NC(Cc1cccc(O)c1)C(=O)O	ATCC 6258	broth dilution	-	382 µg/mL
CCOC(=O)C1C(=O)C=C(c2ccc(Cl)cc2)CC1c1ccc(C2CC(c3ccc(Cl)cc3)=CC(=O)C2C(=O)OCC)cc1	Clinical isolate	-	-	12.5 µg/mL
Cc1nc2c(s1)C(=O)C(Nc1cccc(F)c1)=C(Cl)C2=O	KCCM 11655	broth dilution	-	100 µg/mL
CCOC(=O)C1C(=O)C=C(c2ccc(F)cc2)CC1c1ccc(C2CC(c3ccc(F)cc3)=CC(=O)C2C(=O)OCC)cc1	Clinical isolate	-	-	6.25 µg/mL
Nc1[nH]c(=O)ncc1F	-	broth dilution	-	6.3 µg/mL
C/C(=N\NC([S-])=Nc1ccccc1[N+](=O)[O-])c1ccccn1.CCC[CH2][Sn+3]	ATCC 200298	broth dilution	-	7.13 µM

A second listing of 3 rows from above:

{"SMILES": "COC(=O)c1ccc(C[C@H](C(=O)OC)[C@@H](O)C(=O)OC)cc1", "strain": "DSM 6128", "result": "2 µg/mL"}
{"SMILES": "OC(Cn1cncn1)(Cn1cncn1)c1ccc(F)cc1F", "read by": "agar", "result": "25–100 µg/mL"}
{"SMILES": "NC(Cc1ccccc1)C(=O)CC(CC1C=Nc2ccccc21)C(=O)NC(Cc1cccc(O)c1)C(=O)O", "strain": "ATCC 6258", "read by": "broth dilution", "result": "382 µg/mL"}